Drawing on patent publication EP1073463B1, this text covers Protein synthesis (% of controls), Jurkat cells, 1 x 10^-10 M, no serum (% of controls) for 1 substance.

In the experiment the target is human CD3 on Jurkat cells (human) (UniProt P07766). Description: cell-based or functional assay.

Substance “UCHT1-CRM9 immunotoxin (chemical conjugate of UCHT1 and CRM9) (from UniProt P00588 33-567)” gave a Protein synthesis (% of controls), Jurkat cells, 1 x 10^-10 M, no serum (% of controls) of 5.
